Experimental data from US6150511 (Fox Chase Cancer Center).

Experiments:
[1] = biological target: T1, C-LIN (LexA DBD 1-87 fused to C-terminus of ASV IN) (Escherichia coli? / Avian sarcoma virus, UniProt P03354;P0A7C2 P03354:1281-1566,P0A7C2:1-87)
T1 chain 1: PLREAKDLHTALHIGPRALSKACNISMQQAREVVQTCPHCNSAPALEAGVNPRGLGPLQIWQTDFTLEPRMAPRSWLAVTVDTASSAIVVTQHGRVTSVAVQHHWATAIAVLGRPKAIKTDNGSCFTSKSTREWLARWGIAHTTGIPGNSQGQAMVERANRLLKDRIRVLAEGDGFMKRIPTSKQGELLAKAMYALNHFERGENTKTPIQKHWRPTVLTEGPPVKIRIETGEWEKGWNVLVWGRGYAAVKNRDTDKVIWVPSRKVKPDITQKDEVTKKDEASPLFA
T1 chain 2: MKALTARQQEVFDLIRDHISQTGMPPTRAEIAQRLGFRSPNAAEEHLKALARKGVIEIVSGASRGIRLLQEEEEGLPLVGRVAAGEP

[2] = biological target: T2, N-LIN (LexA DBD 1-87 fused to N-terminus of ASV IN) (Escherichia coli? / Avian sarcoma virus, UniProt P0A7C2;P03354 P0A7C2:1-87,P03354:1281-1566)
T2 chain 1: T1 chain 2
T2 chain 2: T1 chain 1

LIN 18-286 = biological target: T3, LIN 18-286 (Escherichia coli? / Avian sarcoma virus, UniProt P0A7C2;P03354 P0A7C2:1-87,P03354:1298-1566)
T3 chain 1: T1 chain 2
T3 chain 2: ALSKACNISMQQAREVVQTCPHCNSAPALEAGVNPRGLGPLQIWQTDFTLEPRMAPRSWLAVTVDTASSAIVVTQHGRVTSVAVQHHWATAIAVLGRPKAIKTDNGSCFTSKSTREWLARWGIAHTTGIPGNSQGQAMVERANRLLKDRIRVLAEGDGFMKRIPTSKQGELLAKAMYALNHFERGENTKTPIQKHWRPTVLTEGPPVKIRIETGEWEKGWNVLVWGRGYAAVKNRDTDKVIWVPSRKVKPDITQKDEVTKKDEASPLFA

Measured: binding result

B1: tandem lexA operator segment (in pBR711-2) (dsDNA)
chain 1: GGGGTCGACATTACTGTATATATATACAGCATAACTGTATATATATACAGTATAGGATCCGGG
chain 2: CCCGGATCCTATACTGTATATATATACAGTTATGCTGTATATATATACAGTAATGTCGACCCC
binds: [1] | [2] | LIN 18-286
